Measurements published in PubChem BioAssay AID1347417 (National Center for Advancing Translational Sciences (NCATS), 2020).
The list shows a part of the results, in another mix than the full data. Inconclusive results are not listed. The source made the active and inactive calls. The call rests on the fitted dose curve; in most records, active means well fitted inhibition curve with a large enough effect; inconclusive means small, poorly fitted or top-dose-only effect; inactive means no such curve, though single readings can be large or run the other way.

Test: qHTS Primary assay for Inhibitors of Plasmodium falciparum Dd2 growth in vitro;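 further: plate controls were DMSO vehicle for no effect and reference drug for full effect; nearly all actives have a fitted effect of over 65% in size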
Settings: P. falciparum Dd2 growth, SYBR Green, 72 h; at 44.1 µM (top of the series)
From the text: Malaria, a parasitic disease spread to humans through the bite of a Plasmodium infected Anopheles mosquito, continues to be a global health burden affecting millions of people, with an estimated 228 million cases and 405,000 deaths in 2018. Concerns about safety and limitations of current antimalarial treatments strongly emphasize the need to develop new therapeutic options. The scarce number of chemotypes and validated drug targets with efficacy against the liver stage, have hindered development of new antimalarials. To address this, a chemoprophylactic drug discovery effort was conducted through a combined phenotypic high-throughput asexual blood stage and liver stage screen, providing a robust foundation to identify liver-stage active lead chemotypes. Compounds were initially screened against Plasmodium falciparum Dd2 strain parasites using a in vitro SYBRGreen-1 based 72 hr proliferation assay to identify novel chemotypes to advance to liver stage assays. NIH/NCATS Early Translation Branch Assay Submitter (PI): Anton Simeonov Ph.D.
Malaria-vivax Assay Protocol: PROTOCOL TABLE (as described by Inglese et al., 2007) SEQUENCE No. (e.g., 1, 2, 3, etc.); […] […] Compound Management for Quantitative High-Throughput Screening. […]
With CNCc1cc2ccccc2o1 the activity, negative = inhibition was inactive: -19.1%.
For CNCc1cccc(C)n1, the activity, negative = inhibition was inactive: -4.38%.
